Article PMC3542638

Tests used:
Assay in all cases: purified protein
Conditions in all cases: 30.0 °C
CC(=O)OCC(=O)O = tested on: CC(=O)OCC(=O)O
[1] = tested on: CC(=O)O[C@@H](C(=O)O)c1ccccc1
CC[C@@H](OC(C)=O)C(=O)O = tested on: CC[C@@H](OC(C)=O)C(=O)O
CC(=O)O[C@H](CO)C(=O)O = tested on: CC(=O)O[C@H](CO)C(=O)O

Oant2987 (Brucella anthropi ATCC 49188)
Km (CC(=O)OCC(=O)O): 1100 ± 200 µM
kcat/Km (CC(=O)OCC(=O)O): 4200 M⁻¹ s⁻¹
Km [1]: 700 ± 100 µM
kcat/Km [1]: 180000 M⁻¹ s⁻¹
Km (CC[C@@H](OC(C)=O)C(=O)O): 1200 ± 100 µM
Km (CC(=O)O[C@H](CO)C(=O)O): 2100 ± 500 µM
kcat/Km (CC(=O)O[C@H](CO)C(=O)O): 300 M⁻¹ s⁻¹
